{"source": "the supplement of paper PMC12637763", "binders": {"B1": {"name": "HIV-1 Env, rebound clone, placebo arm (protein)", "chain": "MRAKGTRKNCQHLWKWGTMLLGMLMICSAAGNLWVTVYYGVPVWKAANTTLFCASDAKAYDTEVHNVWATHACVPTDPNPQEVPLENVTENFNMWKNNMAEQMHEDIISLWDQSLKPCVKLTPLCVTLNCTDYTKNATNQNNTSGNETVGKEIEMKNCSFNITTDMRDKFQKEYALFYKDDIVSIDNNVSYRLISCNTSVLTQACPKISFEPIPIHYCAPAGFAILKCNDKKFNGTGPCKNVSTVQCTHGIRPVVSTQLLLNGSLAEGGIVIRSENITNNAKTIIVQLNETVEINCTRPNNNTRKSIHIGPGRAFYATGDIIGDIRQAHCNISGTKWNNTLKKIVGQLRAQFGTQFKNKTITFNHSSGGDPEIVMHMFNCGGEFFYCNTTQLFNSTWPVNGSMAENSTNNGTITLPCRIKQIVNMWQEVGKAMYAPPIKGQIKCTSNITGLILTRDGGTETNTTTEIFRPGGGNMMDNWRSELYKYKVVKIEPLGVAPTKAKRRVVQREKRAVTFGALFLGFLGAAGSTMGAASMTLTVQARLLLSGIVQQQNNLLRAIEAQQHMLQLTVWGIKQLQARVLAVERYLKDQQLLGIWGCSGKLICTTAVPWNASWSNKTQDEIWGNMTWMQWEKEISNYTGLIYNLIEKSQTQQEQNEQELLALDQWASLWNWFDISKWLWYIKIFIMIVGGLIGLRIVFTVLNIVNRVRQGYSPLSFQTLLPNPRGPDRPGGIEEEGGERDRDSSSRLADGFLAIFWVDLRSLFLFSYHHLRDLLLIAARIVELLGRRGWELLKYWWNLLRYWSQELKNSAISLLNATAIAVAEGTDRVIEVLQRIWRGILHIPTRIRQGLERLLL"}, "B2": {"name": "HIV-1 Env, rebound clone, placebo arm (protein)", "chain": "MRAKGTRKNCQHLWKWGTMLLGMLMICSAAGNLWVTVYYGVPVWKAANTTLFCASDAKAYDTEVHNVWATHACVPTDPNPQEVPLENVTENFNMWKNNMAEQMHEDIISLWDQSLKPCVKLTPLCVTLNCTDYTKNATNQNNTSGNETVGKEIEMKNCSFNITTDMRDKFQKEYALFYKDDIVSIDNNVSYRLISCNTSVLTQACPKISFEPIPIHYCAPAGFAILKCNDKKFNGTGPCKNVSTVQCTHGIRPVVSTQLLLNGSLAEGGIVIRSENITNNAKTIIVQLNETVEINCTRPNNNTRKSIHIGPGRAFYATGDIIGDIRQAHCNISGTKWNNTLKKIVGQLRAQFGTQFKNKTITFNHSSGGDPEIVMHMFNCGGEFFYCNTTQLFNSTWPANGSMAENSTNNGTITLPCRIKQIVNMWQEVGKAMYAPPIKGQIKCTSNITGLILTRDGGTETNTTTEIFRPGGGNMMDNWRSELYKYKVVKIEPLGVAPTKAKRRVVQREKRAVTFGALFLGFLGAAGSTMGAASMTLTVQARLLLSGIVQQQNNLLRAIEAQQHMLQLTVWGIKQLQARVLAVERYLKDQQLLGIWGCSGKLICTTAVPWNASWSNKTQDEIWGNMTWMQWEKEISNYTGLIYNLIEKSQTQQEQNEQELLALDQWASLWNWFDISKWLWYIKIFIMIVGGLIGLRIVFTVLNIVNRVRQGYSPLSFQTLLPNPRGPDRPGGIEEEGGERDRDSSSRLADGLLAIFWVDLRSLFLFSYHHLRDLLLIAARIVELLGRRGWELLKYWWNLLRYWSQELKNSAISLLNATAIAVAEGTDRVIEVLQRIWRGILHIPTRIRQGLERLLL"}, "B3": {"name": "HIV-1 Env, rebound clone, placebo arm (protein)", "chain": "MRAKGTRKNCQHLWKWGTMLLGMLMICSAAGNLWVTVYYGVPVWKAANTTLFCASDAKAYDTEVHNVWATHACVPTDPNPQEVPLENVTENFNMWKNNMAEQMHEDIISLWDQSLKPCVKLTPLCVTLNCTDYTKNATNQNNTSGNETVGKEIEMKNCSFNITTDMRDKFQKEYALFYKDDIVSIDNNVSYRLISCNTSVLTQACPKISFEPIPIHYCAPAGFAILKCNDKKFNGTGPCKNVSTVQCTHGIRPVVSTQLLLNGSLAEGGIVIRSENITNNAKTIIVQLNETVEINCTRPNNNTRKSIHIGPGRAFYATGDIIGDIRQAHCNISGTKWNNTLKKIVGQLRAQFGTQFKNKTITFNHSSGGDPEIVMHMFNCGGEFFYCNTTQLFNSTWPANGSMAENSTNNGTITLPCRIKQIVNMWQEVGKAMYAPPIKGQIKCTSNITGLILTRDGGTETNTTTEIFRPGGGNMIDNWRSKLYKYKVVKIEPLGVAPTKAKRRVVQREKRAVTFGALFLGFLGAAGSTMGAASMTLTVQARLLLSGIVQQQNNLLRAIEAQQHMLQLTVWGIKQLQARVLAVERYLKDQQLLGIWGCSGKLICTTAVPWNASWSNKTQDEIWGNMTWMQWEKEISNYTGLIYNLIEKSQTQQEQNEQELLALDQWASLWNWFDISKWLWYIKIFIMIVGGLIGLRIVFTVLNIVNRVRQGYSPLSFQTLLPNPRGPDRPGGIEEEGGERDRDSSSRLADGFLAIFWVDLRSLFLFSYHHLRDLLLIAARIVELLGRRGWELLKYWWNLLRYWSQELKNSAISLLNATAIAVAEGTDRVIEVLQRIWRGILHIPTRIRQGLERLLL"}, "B4": {"name": "HIV-1 Env, rebound clone, placebo arm (protein)", "chain": "MRAKGTRKNCQHLWKWGTMLLGMLMICSAAGNLWVTVYYGVPVWKAANTTLFCASDAKAYDTEVHNVWATHACVPTDPNPQEVPLENVTENFNMWKNNMAEQMHEDIISLWDQSLKPCVKLTPLCVTLNCTDYTKNATNQNNTSGNETVGKEIEMKNCSFNITTDMRDKFQKEYALFYKDDIVSIDNNVSYRLISCNTSVLTQACPKISFEPIPIHYCAPAGFAILKCNDKKFNGTGPCKNVSTVQCTHGIRPVVSTQLLLNGSLAEGGIVIRSENITNNAKTIIVQLNETVEINCTRPNNNTRKSIHIGPGRAFYATGDIIGDIRQAHCNISGTKWNNTLKKTVGQLRAQFGTQFKNKTITFNHSSGGDPEIVMHMFNCGGEFFYCNTTQLFNSTWPANGSMAENSTNNGTITLPCRIKQIVNMWQEVGKAMYAPPIKGQIKCTSNITGLILTRDGGTETNTTTEIFRPGGGNMMDNWRSELYKYKVVKIEPLGVAPTKAKRRVVQREKRAVTFGALFLGFLGAAGSTMGAASMTLTVQARLLLSGIVQQQNNLLRAIEAQQHMLQLTVWGIKQLQARVLAVERYLKDQQLLGIWGCSGKLICTTAVPWNASWSNKTQDEIWGNMTWMQWEKEISNYTGLIYNLIEKSQTQQEQNEQELLALDQWASLWNWFDISKWLWYIKIFIMIVGGLIGLRIVFTVLNIVNRVRQGYSPLSFQTLLPNPRGPDRPGGIEEEGGERDRDSSSRLADGFLAIFWVDLRSLFLFSYHHLRDLLLIAARIVELLGRRGWELLKYWWNLLRYWSQELKNSAISLLNATAIAVAEGTDRVIEVLQRIWRGILHIPTRIRQGLERLLL"}, "B5": {"name": "HIV-1 Env, rebound clone, placebo arm (protein)", "chain": "MRAKGTRKNCQHLWKWGTMLLGMLMICSAAGNLWVTVYYGVPVWKAANTTLFCASDAKAYDTEVHNVWATHACVPTDPNPQEVPLENVTENFNMWKNNMAEQMHEDIISLWDQSLKPCVKLTPLCVTLNCTDYTKNATNQNNTSGNETVGKEIEMKNCSFNITTDMRDKFQKEYALFYKDDIVSIDNNVSYRLISCNTSVLTQACPKISFEPIPIHYCAPAGFAILKCNDKKFNGTGPCKNVSTVQCTHGIRPVVSTQLLLNGSLAEGGIVIRSENITNNAKTIIVQLNETVEINCTRPNNNTRKSIHIGPGRAFYATGDIIGDIRQAHCNISGTKWNNTLKKIVGQLRAQFGTQFKNKTITFNHSSGGDPEIVMHMFNCGGEFFYCNTTQLFNSTWPANESMAENSTNNGTITLPCRIKQIVNMWQEVGKAMYAPPIKGQIKCTSNITGLILTRDGGTETNTTTEIFRPGGGNMMDNWRSELYKYKVVKIEPLGVAPTKAKRRVVQREKRAVTFGALFLGFLGAAGSTMGAASMTLTVQARLLLSGIVQQQNNLLRAIEAQQHMLQLTVWGIKQLQARVLAVERYLKDQQLLGIWGCSGKLICTTAVPWNASWSNKTQDEIWGNMTWMQWEKEISNYTGLIYNLIEKSQTQQEQNEQELLALDQWASLWNWFDISKWLWYIKIFIMIVGGLIGLRIVFTVLNIVNRVRQGYSPLSFQTLLPNPRGPDRPGGIEEEGGERDRDSSSRLADGFLAIFWVDLRSLFLFSYHHLRDLLLIAARIVELLGRRGWELLKYWWNLLRYWSQELKNSAISLLNATAIAVAEGTDRVIEVLQRIWRGILHIPTRIRQGLERLLL"}, "B6": {"name": "HIV-1 Env, rebound clone, placebo arm (protein)", "chain": "MRAKGTRKNCQHLWKWGTMLLGMLMICSAAGNLWVTVYYGVPVWKAANTTLFCASDAKAYDTEVHNVWATHACVPTDPNPQEVPLENVTENFNMWKNNMAEQMHEDIISLWDQSLKPCVKLTPLCVTLNCTDYTKNATNQNNTSGNETVGKEIEMKNCSFNITTDMRDKFQKEYALFYKDDIVSIDNNVSYRLISCNTSVLTQACPKISFEPIPIHYCAPAGFAILKCNDKKFNGTGPCKNVSTVQCTHGIRPVVSTQLLLNGSLAEGGIVIRSENITNNAKTIIVQLNETVKINCTRPNNNTRKSIHIGPGRAFYATGDIIGDIRQAHCNISGTKWNNTLKKIVGQLRAQFGTQFKNKTITFNHSSGGDPEIVMHMFNCGGEFFYCNTTQLFNSTWPANGSMAENSTNNGTITLPCRIKQIVNMWQEVGKAMYAPPIKGQIKCTSNITGLILTRDGGTETNTTTEIFRPGGGNMMDNWRSELYKYKVVKIEPLGVAPTKAKRRVVQREKRAVTFGALFLGFLGAAGSTMGAASMTLTVQARLLLSGIVQQQNNLLRAIEAQQHMLQLTVWGIKQLQARVLAVERYLKDQQLLGIWGCSGKLICTTAVPWNASWSNKTQDEIWGNMTWMQWEKEISNYTGLIYNLIEKSQTQQEQNEQELLALDQWASLWNWFDISKWLWYIKIFIMIVGGLIGLRIVFTVLNIVNRVRQGYSPLSFQTLLPNPRGPDRPGGIEEEGGERDRDSSSRLADGFLAIFWVDLRSLFLFSYHHLRDLLLIAARIVELLGRRGWELLKYWWNLLRYWSQELKNSAISLLNATAIAVAEGTDRVIEVLQRIWRGILHIPTRIRQGLERLLL"}}, "note": "This is one part of the list. Env chains of viruses from a treatment-interruption trial, translated from the printed DNA. IC50 / IC80 of two broadly neutralizing antibodies; lower = more sensitive virus; >50 µg/ml means not reached and <0.001 µg/ml is below the lowest dose. No active / inactive call."}
{"target": "antibody 10-1074", "assay": "neutralization IC50; higher = virus less sensitive to the antibody", "procedure": "(§1)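 Pseudovirus bearing the Env chain mixed with antibody, from 50 µg/ml in fivefold dilutions, on TZM-bl reporter cells, in duplicate.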", "units": {"neutralization IC50": "µg/mL"}}
{"binder": "B1", "neutralization IC50": 0.008}
{"binder": "B2", "neutralization IC50": 0.006}
{"binder": "B3", "neutralization IC50": 0.007}
{"binder": "B4", "neutralization IC50": 0.005}
{"binder": "B5", "neutralization IC50": 0.005}
{"binder": "B6", "neutralization IC50": 0.009}
{"target": "antibody 3BNC117", "assay": "neutralization IC50; higher = virus less sensitive to the antibody", "procedure": "as §1", "units": {"neutralization IC50": "µg/mL"}}
{"binder": "B1", "neutralization IC50": 0.01}
{"binder": "B2", "neutralization IC50": 0.014}
{"binder": "B3", "neutralization IC50": 0.014}
{"binder": "B4", "neutralization IC50": 0.016}
{"binder": "B5", "neutralization IC50": 0.012}
{"binder": "B6", "neutralization IC50": 0.019}
{"target": "antibody 10-1074", "assay": "neutralization IC80; higher = virus less sensitive to the antibody", "procedure": "as §1", "units": {"neutralization IC80": "µg/mL"}}
{"binder": "B1", "neutralization IC80": 0.033}
{"binder": "B2", "neutralization IC80": 0.026}
{"binder": "B3", "neutralization IC80": 0.032}
{"binder": "B4", "neutralization IC80": 0.026}
{"binder": "B5", "neutralization IC80": 0.028}
{"binder": "B6", "neutralization IC80": 0.027}
{"target": "antibody 3BNC117", "assay": "neutralization IC80; higher = virus less sensitive to the antibody", "procedure": "as §1", "units": {"neutralization IC80": "µg/mL"}}
{"binder": "B1", "neutralization IC80": 0.032}
{"binder": "B2", "neutralization IC80": 0.035}
{"binder": "B3", "neutralization IC80": 0.048}
{"binder": "B4", "neutralization IC80": 0.045}
{"binder": "B5", "neutralization IC80": 0.044}
{"binder": "B6", "neutralization IC80": 0.051}
